Drawing on paper PMC3855555, “Mycobacterial MazG Safeguards Genetic Stability via Housecleaning of 5-OH-dCTP” (PLoS Pathogens, 2013), this text covers Km and kcat/Km for 1 substance.

Holding throughout (assay): purified protein
What all share (conditions): pH 7.5; 37.0 °C

The subject of data set [1] is Nc1ccn([C@H]2C[C@H](O)[C@@H](COP(=O)(O)OP(=O)(O)OP(=O)(O)O)O2)c(=O)n1.
For data set [2], the system named is O=Cc1cn([C@H]2C[C@H](O)[C@@H](COP(=O)(O)OP(=O)(O)OP(=O)(O)O)O2)c(=O)[nH]c1=O.
The subject of data set [3] is Nc1ncnc2c1ncn2[C@H]1C[C@H](O)[C@@H](COP(=O)(O)OP(=O)(O)OP(=O)(O)O)O1.
In data set [4] the test system is Nc1nc(O)nc2c1ncn2[C@H]1C[C@H](O)[C@@H](COP(=O)(O)OP(=O)(O)OP(=O)(O)O)O1.
Data set [5] deals with Nc1nc(=O)n([C@H]2C[C@H](O)[C@@H](COP(=O)(O)OP(=O)(O)OP(=O)(O)O)O2)cc1O.

With “Mtb MazG (Mycobacterium tuberculosis H37Rv)”, the Km is 51 ± 14 µM in data set [1]; 497 ± 140 µM in data set [2]; 64 ± 23 µM in data set [3]; 2.4 ± 0.7 µM in data set [4]; 1.9 ± 0.3 µM in data set [5]. For the same substance, the kcat/Km in data set [1] came to 1000 M⁻¹ s⁻¹; in data set [2] it was 1830 M⁻¹ s⁻¹; in data set [3] it was 1500 M⁻¹ s⁻¹; in data set [4], 13200 M⁻¹ s⁻¹; in data set [5] it was 11300 M⁻¹ s⁻¹.
